Source: publication PMC10819331
For at least one entry, the source does not settle the construct or the ends of the probe.

System: MBP-Z3495 (LysR-type regulator)
Assay: EMSA
Conditions: 0-4 uM protein; recombinant protein; protein details: N-terminal MBP (pMal-c5X); probe letters rebuilt from the primers and the genome

## AGCATGAGTGCTACTAAACAGATCGGTAAAGCACGCATAGTATTTCCTCAATGTATGATCAAAACGTCAATATTGAATCAGGAGCTTGTAAAAATGACAAGACGGGCAAGCGCCCGTCCTGAATGATATTACAAATTGTGGAAACAGCCTAAAAATTACCAGCCTTTAACAGCGCCGCCGTTAAACACTTTGTTTGCTGCTTCGTAAACTTCGTCAGACTGATAAGCCTGGACGAATTTCTTCACGTTCTCGGCGTCTTTGTTATCTTCACGCGTTACGATCAGGTTTACGTACGGGGAGTCTTTATCTTCGACAAAGATACC (double strand) [rcsF promoter]
  binding result: binds
